## HIV-1 NL4-3 point mutations in integrase: replication capacity

Protein: integrase of HIV-1 NL4-3, numbered from its first residue. The source prints no sequence; the chain below is taken from UniProt P12497, a closely related isolate, and fits the source at the 252 positions it covers.
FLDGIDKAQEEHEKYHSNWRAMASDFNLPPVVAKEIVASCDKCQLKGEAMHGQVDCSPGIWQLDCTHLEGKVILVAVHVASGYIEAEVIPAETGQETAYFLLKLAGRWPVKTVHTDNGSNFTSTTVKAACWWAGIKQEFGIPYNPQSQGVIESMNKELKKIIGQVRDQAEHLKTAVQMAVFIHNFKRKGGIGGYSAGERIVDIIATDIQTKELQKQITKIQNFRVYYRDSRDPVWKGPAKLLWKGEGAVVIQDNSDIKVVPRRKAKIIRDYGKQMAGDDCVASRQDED
"Other frame" gives the effect on an overlapping gene as the source lists it; other overlaps (genes, RNA elements) are not shown.

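Seven fragments of pNL4-3 were mutated by error-prone PCR, and each virus pool was passaged in CEM T cells. The RC index is the frequency of a change after passage round 2 divided by its frequency in the plasmid library.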

RC index: lower means poorer replication; rough cut-offs are 0.1 (lethal) and 0.2 (tolerated).
Each entry names the wild-type residue, its position and the residue put in its place.
Input reads are the counts in the plasmid library.
Since each clone held several changes (about five per kb), neutral changes can read low.

For A205V (base C4843T, input reads 396) the result was 0.114. I60L (base A4407C, input reads 53) read 0.0377. For E198V (base A4822T, input reads 231) the result was 0.0468. For L2I (base T4233A, input reads 318) the result was 0.0496. With S57G (base A4398G, input reads 239) the assay gave 0.100. S153P (base T4686C, input reads 192) gave 0.102. Q62H (base G4415T, input reads 233) read 0.0600. A8D (base C4252A, input reads 86) gave 0.184. For Q177H (base A4760T, input reads 438) the result was 0.0285.

With V201A (base T4831C, input reads 235) the assay gave 0.0613. N184S (base A4780G, input reads 299) gave 0.0239. V113L (base G4566C, input reads 220) gave 0.252. V165L (base G4722C, input reads 116) read 0.0462. L172P (base T4744C, input reads 366) read 0.0390. E13K (base G4266A, input reads 255) gave 0.875. For D286N (base G5085A, other frame Vif silent, input reads 161) the result was 0.524. With K219N (base A4886T, input reads 254) the assay gave 0.0284. M154T (base T4690C, input reads 250) gave 0.0714.

I200V (base A4827G, input reads 376) gave 0.0479. G70V (base G4438T, input reads 124) gave 0.145. E85V (base A4483T, input reads 273) gave 0.0219. E96V (base A4516T, input reads 242) gave 0.0572. N117Y (base A4578T, input reads 273) gave 0.0724. V180E (base T4768A, input reads 158) read 0.0452. With Y83H (base T4476C, input reads 189) the assay gave 0.116. With L242F (base C4953T, input reads 246) the assay gave 0.0730. D202N (base G4833A, input reads 273) gave 0.0924.

With D256V (base A4996T, input reads 370) the assay gave 0.0364. L101H (base T4531A, input reads 184) gave 0.0430. I203M (base A4838G, input reads 214) read 0.126. With Q146L (base A4666T, input reads 438) the assay gave 0.0245. With V180L (base G4767T, input reads 254) the assay gave 0.0914. With Y226N (base T4905A, input reads 131) the assay gave 0.0138. With Q252R (base A4984G, input reads 343) the assay gave 0.0589. K219R (base A4885G, input reads 130) gave 0.0554. G245C (base G4962T, input reads 268) gave 0.126.

For K173E (base A4746G, input reads 184) the result was 0.0776. G59R (base G4404A, input reads 127) read 0.535. N184D (base A4779G, input reads 273) read 0.0523. T66A (base A4425G, input reads 187) gave 0.139. With A239T (base G4944A, input reads 416) the assay gave 0.0971. I220N (base T4888A, input reads 218) gave 0.0165. G163R (base G4716A, input reads 272) gave 0.821. For E11G (base A4261G, input reads 378) the result was 0.0596. D25E (base T4304A, input reads 618) gave 0.0657.

A38V (base C4342T, input reads 666) read 0.139. With I208V (base A4851G, input reads 241) the assay gave 0.0299. I141F (base A4650T, input reads 269) gave 0.0441. For L158S (base T4702C, input reads 209) the result was 0.0683. For M22T (base T4294C, input reads 392) the result was 0.0748. With A86E (base C4486A, input reads 55) the assay gave 0.182. With D253E (base T4988A, input reads 232) the assay gave 0.0387. A33T (base G4326A, input reads 709) read 0.156. V32A (base T4324C, input reads 382) gave 0.0826.

With L101F (base C4530T, input reads 211) the assay gave 0.0750. I36M (base A4337G, input reads 302) read 0.164. F185S (base T4783C, input reads 493) read 0.0691. With F100I (base T4527A, input reads 306) the assay gave 0.0646. V32L (base G4323C, input reads 225) read 0.0802. For S123N (base G4597A, input reads 639) the result was 0.254. I5V (base A4242G, input reads 389) gave 0.0811. T206S (base A4845T, input reads 520) read 0.0554. For G52V (base G4384T, input reads 160) the result was 0.137.

With I268N (base T5032A, input reads 263) the assay gave 0.0512. W108C (base G4553T, input reads 102) gave 0.0970. G106A (base G4546C, input reads 34) gave 0.116. For A38D (base C4342A, input reads 142) the result was 0.0794. V150L (base G4677T, input reads 108) read 0.0827.

Excerpt, the final 8 entries:

| mutation | base | other frame | input reads | replication capacity index |
|---|---|---|---|---|
| I5V | A4242G | none | 389 | 0.0811 |
| T206S | A4845T | none | 520 | 0.0554 |
| G52V | G4384T | none | 160 | 0.137 |
| I268N | T5032A | none | 263 | 0.0512 |
| W108C | G4553T | none | 102 | 0.0970 |
| G106A | G4546C | none | 34 | 0.116 |
| A38D | C4342A | none | 142 | 0.0794 |
| V150L | G4677T | none | 108 | 0.0827 |

An index over 1, which the authors read as above wild type, was rare (1.9% of all changes in the genome).
Base changes are numbered along pNL4-3.

The measurements come from Al-Mawsawi et al. 2014 (doi:10.1186/s12977-014-0124-6).